Measurements reported in PubChem BioAssay AID624099 (ICCB-Longwood, 2012)

Test: 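Human genes that papillomavirus E2 requires to repress the HPV18 LCR promoter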 (primary screen)
System: human C33A cervical carcinoma cells (HPV-negative) stably expressing BPV1 E2 and an HPV18 LCR luciferase reporter
Knock-down reagent: siRNA pool against human genes, 40 nM
Duration: 72 h
Measurement: 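Per-well luciferase luminescence, z-scored on each plate against the plate mean and SD with control wells left out, then averaged across three replicate plates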
Direction: mean z-score and z-score: higher = stronger reporter signal, weaker E2 silencing
Active means: 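Mean z ≥ 2 together with z ≥ 2 in two or more of the three replicates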
The deposit covers about 21,000 reagents; this is an unselected part. Over the whole deposit, 497 (2.4%) got an active call. 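Higher z means weaker E2 silencing; only reporter increases were scored, and knock-downs that hurt cell survival may mask genuine repressor factors.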 Entries without a mark were called inactive. Reagents against one gene are numbered here.

gene | reagent | mean z-score | z-score, replicate A | z-score, replicate B | z-score, replicate C
EML1 | 1 | 0.54 | 0.44 | 0.57 | 0.62
ELP5 | 1 | -0.33 | -0.13 | -0.33 | -0.52
MRPL28 | 1 | -1.04 | -1.14 | -0.91 | -1.05
LHFPL3 | 1 | -0.71 | -0.36 | -0.83 | -0.93
ST13P5 | 1 | 0.13 | 0.52 | -0.13 | 0
ZNF157 | 1 | -0.87 | -0.8 | -0.86 | -0.96
GPR18 | 1 | -1.88 | -1.72 | -1.93 | -1.98
EHF | 1 | -0.23 | -0.12 | -0.42 | -0.16
APOL1 | 1 | 3.39 (active) | 3.38 | 3.65 | 3.15
MNT | 1 | -0.2 | -0.22 | -0.11 | -0.28
MAP3K15 | 1 | 0.99 | 0.97 | 0.97 | 1.03
PARP9 | 1 | 0.46 | 0.09 | 0.7 | 0.58
TBCCD1 | 1 | -1.22 | -1.13 | -1.43 | -1.11
NOP53 | 1 | 0.82 | 0.93 | 0.98 | 0.54
PIP | 1 | -1.02 | -0.62 | -1.02 | -1.44
GORASP1 | 1 | 0.21 | 0.26 | 0.33 | 0.04
LOC389142 (retired record) | 1 | -0.1 | -0.09 | -0.35 | 0.14
DNAJB14 | 1 | 0.86 | 0.83 | 1.28 | 0.48
LOC123855 (retired record) | 1 | -0.01 | 0.25 | -0.05 | -0.24
ATXN2 | 1 | -1.33 | -1.62 | -1.24 | -1.13
STARD5 | 1 | -0.3 | -0.77 | -0.06 | -0.06
LOC285101 (retired record) | 1 | -0.13 | -0.11 | -0.11 | -0.19
AP1G2 | 1 | 1.54 | 1.52 | 1.48 | 1.62
TRMT61A | 1 | -0.25 | -0.43 | -0.25 | -0.09
HLA-C | 1 | -0.2 | 0 | -0.51 | -0.09
SUPT4H1 | 1 | 0.24 | 0.1 | 0.32 | 0.31
KIF18B | 1 | -0.27 | -0.14 | 0.09 | -0.75

Sorted by “z-score, replicate C” (low to high): some entries from above.
gene | reagent | mean z-score | z-score, replicate A | z-score, replicate B | z-score, replicate C
GPR18 | 1 | -1.88 | -1.72 | -1.93 | -1.98
MRPL28 | 1 | -1.04 | -1.14 | -0.91 | -1.05
ZNF157 | 1 | -0.87 | -0.8 | -0.86 | -0.96
LHFPL3 | 1 | -0.71 | -0.36 | -0.83 | -0.93
EHF | 1 | -0.23 | -0.12 | -0.42 | -0.16
ST13P5 | 1 | 0.13 | 0.52 | -0.13 | 0
APOL1 | 1 | 3.39 (active) | 3.38 | 3.65 | 3.15

The listing continues.
gene | reagent | mean z-score | z-score, replicate A | z-score, replicate B | z-score, replicate C
CHMP4A | 1 | -0.58 | -1.11 | -0.36 | -0.26
SMAD1 | 1 | 0.41 | 0.53 | 0.44 | 0.27
PDHB | 1 | 0.89 | 0.58 | 1.17 | 0.93
LINC01181 | 1 | 0.12 | -0.12 | 0.34 | 0.14
ZNF490 | 1 | 0.62 | 0.31 | 0.62 | 0.93
PFKFB2 | 1 | 0.27 | 0.5 | 0.23 | 0.09
GATB | 1 | 0.02 | -0.1 | 0.36 | -0.19
LOC440464 (retired record) | 1 | -0.7 | -0.72 | -0.82 | -0.55
ZHX1 | 1 | -0.37 | -0.43 | -0.5 | -0.18
BNIP1 | 1 | -0.17 | -0.24 | -0.4 | 0.13
MYL12B | 1 | -0.34 | -0.44 | -0.46 | -0.13
CFAP57 | 1 | 0.39 | 0.28 | 0.66 | 0.22
RPN2 | 1 | -0.75 | -0.79 | -0.73 | -0.72
IQCE | 1 | 0.32 | 0.43 | 0.12 | 0.42
LOC389392 (retired record) | 1 | 0.5 | 0.27 | 0.78 | 0.45
TMEM72 | 1 | 1.21 | 1.66 | 1.16 | 0.81
PSMA4 | 1 | -0.28 | -0.79 | -0.09 | 0.03
GPR152 | 1 | 1.23 | 1.14 | 1.26 | 1.3
C2CD2 | 1 | -1.01 | -1.01 | -1.08 | -0.95
C2CD2 | 2 | -0.33 | -0.34 | -0.27 | -0.39
LOC392208 (retired record) | 1 | -0.43 | -0.53 | -0.06 | -0.7
ZNF554 | 1 | -0.27 | -0.09 | -0.21 | -0.51
DCBLD2 | 1 | -0.79 | -0.95 | -0.93 | -0.49
DIABLO | 1 | -0.08 | 0.08 | 0 | -0.33
NUP35 | 1 | 0.84 | 1.1 | 0.79 | 0.63
PCDHB10 | 1 | -0.54 | -0.56 | -0.5 | -0.56
NAA35 | 1 | 0.37 | 0.34 | 0.21 | 0.55
JRKL | 1 | 0.13 | 0.12 | 0.07 | 0.2
PRB4 | 1 | 4.39 (active) | 4.01 | 4.64 | 4.51
RPL7 | 1 | -2.38 | -2.43 | -2.36 | -2.36
